Results of unrelated studies side by side (data: NIAID ChemDB).

Shared fields: growth or infection tests; species: HIV-1; read by: cytopathic effect; read-out: EC50

a–b is a range or a potency band.

smiles,changes,strain,cell line,result
C1CCNCCCN(CCCN2CCCNCCCCNCCCNCCCNCCCNCCCCNCCC2)CCCNCCCCNCCCNCCCNCCCNC1,,IIIB,MT-4,1.2 µM
CCC1(c2ccc(COc3ccccc3)cc2)Oc2ccccc2-n2cccc2C1=O,,IIIB,C8166,0.083 µM
Fc1cccc(F)c1C1SCc2nc3ccccc3n21,,HE,MT-4,0.52 µM
O=c1[nH]cnc2c1ncn2[C@H]1CC[C@@H](CO)O1,RT-L74V,AJ-05.93 (HXB2(RT-L74V)),MT-4,83.7 µM
Fc1cccc(F)c1C1SCc2nc3ccccc3n21,,,MT-4,0.389 µM
Nc1ccn([C@@H]2CC(CO)(CO)CS2)c(=O)n1,,,MT-4,19.3 µg/mL
Cc1ccc(CN2C(=O)CSC2c2c(F)cccc2F)o1,,IIIB,MT-4,13.06 µM
CNc1ncnc2c1ncn2[C@H]1C[C@H](CO)CS1,,,MT-4,>54.8 µM
N#Cc1nc(N)nc2c1ncn2[C@H]1C[C@H](N=[N+]=[N-])[C@@H](CO)O1,,IIIB,MT-4,>200 µM
O=c1[nH]cnc2c1ncn2[C@H]1CC[C@@H](CO)O1,,IIIB,MT-2,3.1 µM
Cc1ccnc2c1NC(=O)c1cccnc1N2C1CC1,RT-Y181C,N119 RT-Y181C NNRTI-resistant,MT-2,>3.8 µM
Cc1cn([C@@H]2O[C@H](CO[Si](C)(C)C(C)(C)C)[C@]3(C(N)=CS(=O)(=O)N3C)[C@H]2O[Si](C)(C)C(C)(C)C)c(=O)n(C(=O)OC(C)(C)C)c1=O,RT-E138K,,CEM,>10 µM
CC1Cn2c(=S)[nH]c3cc(Cl)cc(c32)CN1CC1CCC1,,,MT-4,0.013 µM
Cc1cn([C@H]2C[C@H](N=[N+]=[N-])[C@@H](COC(=O)c3cccnc3)O2)c(=O)[nH]c1=O,,IIIB Laboratory strain,MT-4,0.037 µM
C=C(C)[C@]12C[C@@H](C)[C@@]34OC(/C=C/C=C/CCCCC)(O[C@@H]1[C@@H]3[C@@H]1O[C@]1(CO)[C@@H](O)[C@]1(O)C(=O)C(C)=C[C@H]14)O2,,,,0.00564 µM
Cc1ccnc(N2C(=O)CSC2c2c(Cl)cccc2Cl)n1,RT-K103N,,CEM,17.9 µM
Nc1ncnc2c1ncn2[C@H]1CC[C@@H](CO)O1,,IIIB,MT-4,19.2 µM
Cc1cn([C@H]2C[C@H](N=[N+]=[N-])[C@@H](CO)O2)c(=O)[nH]c1=O,,IIIB Laboratory strain,MT-4,0.007 µM
C1CNCCCN(CCCN2CCCNCCCNCCC2)CCCNC1,,IIIB,MT-4,204 µM
Cc1cccc(N2C(=O)CSC23CCCCC3)n1,,IIIB,MT-4,362 µM
Cc1cc(=O)[nH]c(N2C(=O)CSC2c2c(Cl)cccc2Cl)n1,,IIIB,MT-4,32.84 µM
O=C(CCC(=O)Nc1ccn([C@H]2CC[C@@H](CO)O2)c(=O)n1)Nc1ccn([C@H]2CC[C@@H](CO)O2)c(=O)n1,,,,<1 µM
Cc1nc(N2C(=O)CSC2c2c(F)cccc2Cl)ccc1Br,RT,IIIB,MT-4,0.95 µM
Cc1cn([C@H]2C[C@H](N=[N+]=[N-])[C@@H](CO)O2)c(=O)[nH]c1=O,,,,0.01592 µM
CC(C)=CCOc1cc(NC(=S)c2ccoc2C)ccc1Cl,RT-Y181C,J-2 (RT-Y181C),CEM,0.0014 µg/mL
N#Cc1cccc(C2SCc3nc4ccccc4n32)c1,,,MT-4,3.467 µM
Cc1cn([C@H]2C[C@H](OC=O)[C@@H](CO)O2)c(=O)[nH]c1=O,,,CEM,>20 µM
CC(C)=CCN1Cc2cc(Cl)cc3[nH]c(=S)n(c23)C[C@@H]1C,RT-V106A,IIIB,CEM,0.5 µg/mL
Cc1cn([C@@H]2O[C@H](CO[Si](C)(C)C(C)(C)C)[C@@]3(NS(=O)(=O)C=C3N)[C@H]2O[Si](C)(C)C(C)(C)C)c(=O)[nH]c1=O,RT-K103N,,CEM,5.5 µM
Cc1cn([C@H]2C=C[C@@H](CO)O2)c(=O)[nH]c1=O,,LZ-05.95,MT-4,1.68 µM
Cc1occc1C(=S)Nc1ccc(Cl)c(/C=N/OC(C)(C)C)c1,RT-K103N,IIIB,CEM,0.2 µg/mL
Nc1nc2c(ncn2[C@H]2C[C@H](CO)CS2)c(=O)[nH]1,,,MT-4,>100 µM
Cc1cn([C@H]2C[C@H](N=[N+]=[N-])[C@@H](CO)O2)c(=O)[nH]c1=O,,KK-1,MT-4,0.001 µg/mL
C[C@@H]1[C@H](O)[C@@H](C)/C=C/C=C/C=C/C=C/C=C/C=C/C=C/[C@H](O[C@@H]2O[C@H](C)[C@@H](O)[C@H](N)[C@@H]2O)CC2O[C@](O)(CC(O)C(O)CCC(O)CC(O)CC(O)CC(=O)O[C@H]1C)CC(O)C2C(=O)O.O=S(=O)(O)O,,KK-1,MT-4,<7.8 µg/mL
CSc1nc(N)nc2c1ncn2[C@H]1C[C@H](N=[N+]=[N-])[C@@H](CO)O1,,IIIB,MT-4,>200 µM
Fc1cccc(F)c1[C@@H]1SCc2nc3ccccc3n21,,NDK,MT-4,0.79 µM
CCCNc1nc(N)nc2c1ncn2[C@H]1C[C@H](N=[N+]=[N-])[C@@H](CO)O1,,IIIB,MT-4,12 µM
C1CNCCCN(CCCN2CCCNCCCN(CCCN3CCCNCCCNCCC3)CCCNCCC2)CCCNC1,,IIIB,MT-4,1.98 µM
CC(C)=CCN1Cc2cccc3[nH]c(=S)n(c23)C[C@@H]1C,RT-L100I,R82150 (RT-L100I),MT-2,>30 µM
CCN1c2ncccc2N(C)C(=S)c2oc3cccnc3c21,,RF,MT-4,0.2 µM
c1ccc(C2SCc3nc4ccccc4n32)cc1,RT,IIIB,MT-4,0.35 µM
C1CCNCCCNCCCNCCCN(CCCN2CCCNCCCNCCC2)CCCNCCCNCCCNC1,,IIIB,MT-4,7.7 µM
Nc1ncnc2c1ncn2[C@H]1CC[C@@H](CO)O1,,LAV,ATH8,<10 µM
Cc1cn([C@@H]2O[C@H](CO[Si](C)(C)C(C)(C)C)[C@]3(C(N)=CS(=O)(=O)N3C)[C@H]2O[Si](C)(C)C(C)(C)C)c(=O)n(C)c1=O,RT-K103N,,CEM,>250 µM
Cc1cn([C@@H]2CC(CO)(CO)CS2)c(=O)[nH]c1=O,,,MT-4,>100 µg/mL
O=C1CCSC(c2c(Cl)cccc2Cl)N1Cc1ccco1,RT,IIIB,MT-4,5.65 µM
Clc1cccc(Cl)c1C1SCc2nc3ccccc3n21,,,MT-4,0.501 µM
Cc1cn([C@H]2C[C@H](N=[N+]=[N-])[C@@H](CO)O2)c(=O)[nH]c1=O,,IIIB,MT-4,0.003 µM
Cc1ccnc2c1NC(=O)c1cccnc1N2C1CC1,RT-L100I,,CEM,0.24 µM
CSC[C@H](NC(=O)COc1cccc2cnccc12)C(=O)N[C@@H](Cc1ccccc1)[C@H](O)C(=O)N1CSC(C)(C)[C@H]1C(=O)NC(C)(C)C,,IIIB,CEM + CEM-SS,0.006 µM
CC(C)=CCOc1cc(NC(=S)c2ccoc2C)ccc1Cl,,IIIB,CEM,0.002 µg/mL
Cc1cc(C)nc(N2C(=O)CSC2c2c(Cl)cccc2Cl)n1,,IIIB,MT-4,0.017 µM
Cc1cccc(N2C(=O)CSC2c2cccnc2)n1,,IIIB,MT-4,316 µM
Nc1ccn([C@H]2CC[C@@H](CO)O2)c(=O)n1,,IIIB,CEM + CEM-SS,0.0693 µM
COc1ccccc1CNC(=O)c1ccn(Cc2ccc(Cl)cc2)n1,,NL4-3,MT-4,2 µM
CCN1c2ncccc2N(C)C(=S)c2sc3cccnc3c21,,IIIB,C8166,0.0025 µM
Fc1cccc(C2SCc3nc4ccccc4n32)c1,,,MT-4,2.884 µM
CC(C)=CCN1Cc2cc(Cl)cc3[nH]c(=S)n(c23)C[C@@H]1C,,IIIB,MT-4,0.003 µM
Nc1ncnc2c1ncn2CCOCP(=O)(O)O,,IIIB,MT-2,2.85 µM
COc1ccc(S(=O)(=O)N(CC(C)C)CC(O)C(NC(=O)OCc2ccccc2)Sc2ccccc2)cc1,,BRU,MT-4,0.1–1 µM
Cc1ccnc2c1NC(=O)c1cccnc1N2C1CC1,RT-V108I M184I,D-3 (RT-V108I M184I),CEM,0.02 µg/mL
Cc1cn([C@H]2C[C@H](N=[N+]=[N-])[C@@H](CO)O2)c(=O)[nH]c1=O,,CBL-1,C8166,<0.1 µg/mL
Fc1cccc(F)c1[C@H]1SCc2nc3ccccc3n21,,NDK,MT-4,0.55 µM
Nc1ncnc2c1ncn2[C@H]1C[C@H](CO)CS1,,,MT-4,>17.6 µM
CC(C)Nc1cccnc1N1CCN(C(=O)c2cc3cc(NS(C)(=O)=O)ccc3[nH]2)CC1,RT-L100V K103R/K Y188H,B-1 (RT L100V K103R/K Y188H),CEM,0.3 µg/mL
C1CCNCCCNCCCN(CCCN2CCCNCCCCNCCCN(CCCN3CCCNCCCNCCCCNCCCNCCC3)CCCNCCCCNCCC2)CCCNCCCNC1,,IIIB,MT-4,2.3 µM
OC[C@H]1O[C@@H](n2cnc3c2NC=NC[C@H]3O)C[C@@H]1O,,,ATH8,>0.02 µM
CCCCNc1nc(N)nc2c1ncn2[C@H]1C[C@H](N=[N+]=[N-])[C@@H](CO)O1,,IIIB,MT-4,29 µM
Cc1cn([C@H]2C[C@H](N=[N+]=[N-])[C@@H](COC(=O)CCC(=O)Nc3ccn([C@H]4CC[C@@H](CO)O4)c(=O)n3)O2)c(=O)[nH]c1=O,,,,<0.5 µM
Nc1ccn([C@H]2C=C[C@@H](CO)O2)c(=O)n1,,LAV,ATH8,<200 µM
Cc1cn([C@H]2C=C[C@@H](CO)O2)c(=O)[nH]c1=O,RT-L100I,R82150 (RT-L100I),MT-2,1.8 µM
Nc1ncnc2c1ncn2CC(OCP(=O)(O)O)Sc1ccccc1,,,CEM,53.3 µg/mL
C1CCNCCCNCCCNCCCCNCCCNCCCNCCCCNCCCNCCCNCCCNCCCCNCCCNC1,,IIIB,MT-4,3.8 µM
CSC[C@H](NC(=O)COc1cccc2cnccc12)C(=O)N[C@@H](Cc1ccccc1)[C@H](O)C(=O)N1CSC(C)(C)[C@H]1C(=O)NC(C)(C)C,,LAI,ATH8,0.1 µM
C1CNCCCN(CCCN2CCNCCC[N+](CCCN3CCCNCCCNCCC3)(CCCN3CCCNCCCNCCC3)CCCNCC2)CCCNC1,,IIIB,MT-4,9.8 µM
C=CCN1Cc2cccc3[nH]c(=S)n(c23)CC1C,,,MT-4,67.6 µM

A second listing of 9 rows from above:

smiles | changes | strain | cell line | result
Fc1cccc(C2SCc3nc4ccccc4n32)c1 |  |  | MT-4 | 2.884 µM
CC(C)=CCN1Cc2cccc3[nH]c(=S)n(c23)C[C@@H]1C | RT-L100I | R82150 (RT-L100I) | MT-2 | >30 µM
O=C(CCC(=O)Nc1ccn([C@H]2CC[C@@H](CO)O2)c(=O)n1)Nc1ccn([C@H]2CC[C@@H](CO)O2)c(=O)n1 |  |  |  | <1 µM
Cc1cn([C@H]2C[C@H](OC=O)[C@@H](CO)O2)c(=O)[nH]c1=O |  |  | CEM | >20 µM
C1CCNCCCNCCCNCCCN(CCCN2CCCNCCCNCCC2)CCCNCCCNCCCNC1 |  | IIIB | MT-4 | 7.7 µM
Cc1cn([C@@H]2CC(CO)(CO)CS2)c(=O)[nH]c1=O |  |  | MT-4 | >100 µg/mL
Cc1cccc(N2C(=O)CSC2c2cccnc2)n1 |  | IIIB | MT-4 | 316 µM
C1CNCCCN(CCCN2CCNCCC[N+](CCCN3CCCNCCCNCCC3)(CCCN3CCCNCCCNCCC3)CCCNCC2)CCCNC1 |  | IIIB | MT-4 | 9.8 µM
CCCCNc1nc(N)nc2c1ncn2[C@H]1C[C@H](N=[N+]=[N-])[C@@H](CO)O1 |  | IIIB | MT-4 | 29 µM

ECn: concentration that inhibits the pathogen or its effect by n%. Neighbouring rows are from separate reports. Blank or dashed fields: not listed here.